A mixed list of measured activities; the numbers were collected in NIAID ChemDB.

Shared fields: growth or infection tests; agent: Candida albicans; read-out: Mean MIC

Neighbouring rows are from separate reports.

compound	strain	value
O=[N+]([O-])c1cccc(C=Nc2cccc(Cn3ccnc3)c2)c1	27 strains	82.18 µg/mL
Cc1ccc(-c2ccc(Cl)cc2)n1-c1ccc(F)cc1	20 strains	>200 µg/mL
OC[C@H]1CO[C@](Cn2ccnc2)(c2ccc(-c3ccccc3)cc2)O1	44 strains	79.8 µg/mL
O=[N+]([O-])c1c(Cl)cccc1-c1c[nH]cc1Cl	40 strains	47.92 µg/mL
O=C(Nc1cccc(Cn2ccnc2)c1)c1ccc([N+](=O)[O-])cc1[N+](=O)[O-]	27 strains	145 µg/mL
Cc1ccc(C(c2cccc3ccccc23)n2ccnc2)cc1	23 strains	20.5 µg/mL
Cc1ccc(-n2cc(-c3ccc(Cl)cc3)c(C(=O)O)c2C)cc1	40 strains	52.92 µg/mL
O=C(OCC1COC(Cn2ccnc2)(c2ccc(-c3ccccc3)cc2)O1)c1ccccc1	44 strains	18.6 µg/mL
c1ccc(C(c2cccc3ccccc23)n2ccnc2)cc1	23 strains	8.88 µg/mL
COc1cc(CNc2cccc(Cn3ccnc3)c2)cc(OC)c1OC	27 strains	156 µg/mL
Cc1ccc(C(c2ccc3ccccc3c2)n2ccnc2)cc1	23 strains	5.14 µg/mL
Clc1ccc(CNc2cccc(Cn3ccnc3)c2)c(Cl)c1	27 strains	157 µg/mL
c1ccc(-c2ccc(C(c3cccc4ccccc34)n3ccnc3)cc2)cc1	23 strains	108 µg/mL
Clc1ccccc1COc1ccc(C(c2ccc3ccccc3c2)n2ccnc2)cc1.O=[N+]([O-])O	17 strains	≥256 µg/mL
O=[N+]([O-])c1ccc(CNc2cccc(Cn3ccnc3)c2)cc1	27 strains	125 µg/mL
Fc1ccc(COc2ccc(C(c3ccc(-c4ccccc4)cc3)n3ccnc3)cc2)c(F)c1.O=[N+]([O-])O	17 strains	≥256 µg/mL
COc1ccc(C(c2ccc3ccccc3c2)n2ccnc2)cc1	23 strains	7.1 µg/mL
Cc1c(Cn2ccnc2)cc(-c2ccc(Cl)cc2)n1-c1ccc(Cl)cc1Cl	20 strains	53.4 µg/mL
Fc1ccc(COc2ccc(C(c3ccc4ccccc4c3)n3ccnc3)cc2)c(F)c1.O=[N+]([O-])O	16 strains	≥256 µg/mL
Clc1ccc(C(c2ccc3ccccc3c2)n2ccnc2)cc1	23 strains	3.9 µg/mL
Cc1ccc(-c2ccc(Cl)cc2)n1-c1ccc(Cl)cc1	20 strains	>200 µg/mL
Fc1ccc(C(c2ccc3ccccc3c2)n2ccnc2)cc1	23 strains	5.18 µg/mL
Cc1c(C(=O)O)c(-c2ccc(Cl)cc2)cn1-c1ccc(Br)cc1	40 strains	24.85 µg/mL
CS(=O)(=O)OC[C@H]1CO[C@](Cn2ccnc2)(c2ccc(-c3ccccc3)cc2)O1	44 strains	198 µg/mL
Fc1ccccc1COc1ccc(C(c2nccc3ccccc23)n2ccnc2)cc1	17 strains	41.3 µg/mL
CS(=O)(=O)OCC1COC(Cn2ccnc2)(c2ccc(-c3ccccc3)cc2)O1	44 strains	94.1 µg/mL
Cc1c(CN(C)C)cc(-c2ccccc2)n1-c1ccccc1	20 strains	69.8 µg/mL
CCC1CCCC(CC)C(=O)NCCCC(CC)C(OC2OC(C)C(O)C(N)C2OC2OC(CO)C(OC3OC(CO)C(O)C(O)C3O)C(O)C2O)CC1	12 strains	18 µg/mL
Clc1cccc(C=Nc2cccc(Cn3ccnc3)c2)c1	27 strains	88.56 µg/mL
c1ccc2c(C(c3ccc(-n4cccc4)cc3)n3ccnc3)cccc2c1	23 strains	3.9 µg/mL
Clc1ccccc1COc1ccc(C(c2cccc3ccccc23)n2ccnc2)cc1.O=[N+]([O-])O	16 strains	≥256 µg/mL
Cc1c(CN2CCCC2)cc(-c2ccccc2)n1-c1ccc(F)cc1	20 strains	113.4 µg/mL
Cc1ccc(-c2cn(-c3ccc(Br)cc3)c(C)c2C(=O)O)cc1	40 strains	158 µg/mL